Anti-infective test results gathered from many reports (values: NIAID ChemDB through PubChem).

Common to all: tests in culture

a–b is a range or a potency band. Zone: diameter of growth inhibition. An empty or dashed field is not shown. Rows are shuffled and stem from different studies. Percent inhibition refers to the dose given; in toxicity tests it is the harm to the cells. MIC50, MIC90 and the like: level of inhibition, or share of isolates inhibited.

Cc1ccc2c(c1)C(C=NNC(=O)N1c3ccccc3C=Cc3ccccc31)C(c1ccccc1)=N2 ; measure: zone ; agent: Aspergillus oryzae ; tested at: 500 µg/mL ; read by: agar diffusion ; strain or isolate: MTCC-3567 ; value: 12 mm
CCCCCOc1ccc(-c2ccc(-c3ccc(C(=O)N[C@H]4C[C@@H](O)[C@@H](O)NC(=O)[C@@H]5[C@@H](O)[C@@H](C)CN5C(=O)[C@H]([C@H](C)O)NC(=O)[C@H]([C@H](O)[C@@H](O)c5ccc(O)cc5)NC(=O)[C@@H]5C[C@@H](O)CN5C(=O)[C@H]([C@H](C)O)NC4=O)cc3)cc2)cc1 ; measure: MEC ; agent: Aspergillus fumigatus ; strain or isolate: Isolate AF65 ; value: 0.0018 µg/mL
Cc1nc(OCc2nc(-c3ccccc3)n[nH]2)c2ccccc2n1 ; measure: MIC100 ; agent: Aspergillus flavus ; strain or isolate: MTCC 277 ; value: 25 µg/mL
CCC(C)n1ncn(-c2ccc(N3CCN(c4ccc(OC[C@H]5CO[C@](Cn6cncn6)(c6ccc(Cl)cc6Cl)O5)cc4)CC3)cc2)c1=O ; measure: zone ; agent: Aspergillus ochraceus ; tested at: 10 µg/disc ; read by: agar diffusion ; value: 20 mm
Cc1ccc(S(=O)(=O)CNc2oc3[nH]c(=O)[nH]c(=O)c3c2-c2ccc([N+](=O)[O-])cc2)cc1 ; measure: zone ; agent: Aspergillus oryzae ; tested at: 50 µg/mL ; read by: agar diffusion / agar ; value: 12 mm
CCCCCOc1ccc(-c2cc(-c3ccc(C(=O)N[C@H]4C[C@@H](O)[C@@H](O)NC(=O)[C@@H]5[C@@H](O)[C@@H](C)CN5C(=O)[C@H]([C@H](O)CC(N)=O)NC(=O)[C@H]([C@H](O)[C@@H](O)c5ccc(O)c(OS(=O)(=O)O)c5)NC(=O)[C@@H]5C[C@@H](O)CN5C(=O)[C@H]([C@@H](C)O)NC4=O)cc3)no2)cc1 ; measure: MIC50 ; agent: Aspergillus flavus ; read by: broth dilution ; value: 0.016 µg/mL
Cc1ccc(S(=O)(=O)CNc2oc3[nH]c(=O)[nH]c(=O)c3c2-c2ccsc2C=O)cc1 ; measure: zone ; agent: Aspergillus oryzae ; tested at: 100 µg/mL ; read by: agar diffusion / agar ; value: 18 mm
C/C1=C\C(=O)c2c(C)coc2C/C(C)=C/CC1 ; measure: MIC ; agent: Aspergillus spp. ; read by: broth dilution ; strain or isolate: ATCC 293 ; value: >256 µg/mL
CC(=O)N1CCN(c2ccc(OC[C@H]3CO[C@](Cn4ccnc4)(c4ccc(Cl)cc4Cl)O3)cc2)CC1 ; measure: MIC ; agent: Aspergillus versicolor ; read by: broth dilution ; strain or isolate: ATCC 11730 ; value: 200 µg/mL
CCC(C)n1ncn(-c2ccc(N3CCN(c4ccc(OC[C@H]5CO[C@](Cn6cncn6)(c6ccc(Cl)cc6Cl)O5)cc4)CC3)cc2)c1=O ; measure: inhibition ; agent: Aspergillus fumigatus ; tested at: 16 µg/mL ; read by: broth dilution ; strain or isolate: AF293 ; value: 99.39%
CC1=C2C[C@@H]3[C@](C)(CCC[C@@]3(C)O)C[C@]2(O)OC1=O ; measure: MIC ; agent: Aspergillus spp. ; read by: broth dilution ; strain or isolate: ATCC 293 ; value: >256 µg/mL
C[C@@H](c1ncncc1F)[C@](O)(Cn1cncn1)c1ccc(F)cc1F ; measure: MIC50 ; agent: Aspergillus lentulus ; read by: broth dilution ; value: 2 µg/mL
CC(=O)N1CCN(c2ccc(OC[C@H]3CO[C@](Cn4ccnc4)(c4ccc(Cl)cc4Cl)O3)cc2)CC1 ; measure: MIC50 ; agent: Aspergillus versicolor ; strain or isolate: Species complex ; value: 0.5 µg/mL
COC(=O)/C(C)=C1\C(=O)[C@H](O)[C@]2(C)C3=C(C[C@@H]4[C@]5(OC(=O)C6=C5C[C@H]5[C@](O)(COC(=O)/C(C)=C/COC(=O)CCC(=O)OC6)[C@H]6C[C@H]6[C@]45C)[C@H]31)[C@H]1C[C@H]12 ; measure: MIC ; agent: Aspergillus spp. ; read by: broth dilution ; strain or isolate: ATCC 293 ; value: 8 µg/mL
NC(=S)NN=Cc1cccs1 ; measure: MIC ; agent: Aspergillus nomius ; read by: broth dilution ; strain or isolate: MCT 00328 ; value: 125 µg/mL
CCCCCCCCCCCCOC(=O)[C@]1(O)C[C@@H](O)[C@@H](O)[C@H](OC(=O)/C=C/c2ccc(O)c(O)c2)C1 ; measure: MIC80 ; agent: Aspergillus westerdijkiae ; read by: absorbance ; strain or isolate: CBS 112803 ; value: >1500 µg/mL
O=C1S/C(=C\c2ccc(F)cc2F)C(=O)N1CC(O)(Cn1nccn1)c1ccc(F)cc1F ; measure: MIC ; agent: Aspergillus glaucus ; value: >100 µg/mL
O=C(NN=CC1C(c2ccccc2)=Nc2ccc(Cl)cc21)N1c2ccccc2C=Cc2ccccc21 ; measure: zone ; agent: Aspergillus terreus ; tested at: 1000 µg/mL ; read by: agar diffusion ; strain or isolate: MTCC-1782 ; value: 10 mm
Cc1cc(O)c2c(c1)C(=O)c1cc(O)c(O)c(O)c1C2=O ; measure: MIC100 ; agent: Aspergillus nidulans ; mutations: alcA::mdpE ; read by: visual reading ; value: 71–142 µM
Cc1ccc(C(C)C)cc1 ; measure: MLC ; agent: Aspergillus fumigatus ; strain or isolate: F07 ; value: >20 µg/mL
COc1ccc(-c2n[nH]c(COc3nc(C)nc4ccccc34)n2)cc1OC ; measure: MIC100 ; agent: Aspergillus flavus ; strain or isolate: MTCC 277 ; value: 50 µg/mL
Cc1ccc2c(c1)C(C1SCC(=O)N1NC(=O)N1c3ccccc3C=Cc3ccccc31)C(c1ccccc1)=N2 ; measure: zone ; agent: Aspergillus terreus ; tested at: 750 µg/mL ; read by: agar diffusion ; strain or isolate: MTCC-1782 ; value: 13 mm
Fc1ccc(-c2n[nH]c(COc3ncnc4ccccc34)n2)cc1 ; measure: MIC100 ; agent: Aspergillus flavus ; strain or isolate: MTCC 277 ; value: 25 µg/mL
OC(Cn1cncn1)(Cn1cncn1)c1ccc(F)cc1F ; measure: MIC ; agent: Aspergillus glaucus ; value: >100 µg/mL
NC(=S)N/N=C(/C=C/c1ccc([N+](=O)[O-])cc1)c1ccccc1 ; measure: MIC ; agent: Aspergillus parasiticus ; read by: broth dilution ; strain or isolate: MCT 00334 ; value: 500 µg/mL
O=C1S/C(=C\c2ccco2)C(=O)N1CC(O)(Cn1nccn1)c1ccc(F)cc1F ; measure: MIC ; agent: Aspergillus glaucus ; value: >100 µg/mL
O=c1cc(CO)occ1O ; measure: MIC99 ; agent: Aspergillus terreus ; read by: agar ; strain or isolate: UAB698 ; value: >12800 µM
COc1ccc(/C=C2\SC(=O)N(CC(O)(Cn3nccn3)c3ccc(F)cc3F)C2=O)cc1 ; measure: MIC ; agent: Aspergillus glaucus ; value: >100 µg/mL
CC1=C2C(=O)c3c(C)coc3C[C@@]2(C)[C@H](O)C[C@H]1O ; measure: MIC ; agent: Aspergillus spp. ; read by: broth dilution ; strain or isolate: ATCC 293 ; value: >256 µg/mL
Nc1ncccc1-c1cc(Cc2ccc(COc3ccccn3)cc2)no1 ; measure: MIC50 ; agent: Aspergillus flavus ; read by: broth dilution ; strain or isolate: IFM50915 ; value: 0.016 µg/mL
Cc1ccc(-c2c(NCS(=O)(=O)c3ccc(C)cc3)oc3[nH]c(=O)[nH]c(=O)c23)cc1 ; measure: zone ; agent: Aspergillus oryzae ; tested at: 50 µg/mL ; read by: agar diffusion / agar ; value: 16 mm
COc1cc(-c2n[nH]c(COc3nc(C)nc4ccccc34)n2)cc(OC)c1OC ; measure: MIC100 ; agent: Aspergillus flavus ; strain or isolate: MTCC 277 ; value: 25 µg/mL

Again, the opening 3 rows:

compound | measure | agent | tested at | mutations | read by | strain or isolate | value
Cc1ccc2c(c1)C(C=NNC(=O)N1c3ccccc3C=Cc3ccccc31)C(c1ccccc1)=N2 | zone | Aspergillus oryzae | 500 µg/mL | - | agar diffusion | MTCC-3567 | 12 mm
CCCCCOc1ccc(-c2ccc(-c3ccc(C(=O)N[C@H]4C[C@@H](O)[C@@H](O)NC(=O)[C@@H]5[C@@H](O)[C@@H](C)CN5C(=O)[C@H]([C@H](C)O)NC(=O)[C@H]([C@H](O)[C@@H](O)c5ccc(O)cc5)NC(=O)[C@@H]5C[C@@H](O)CN5C(=O)[C@H]([C@H](C)O)NC4=O)cc3)cc2)cc1 | MEC | Aspergillus fumigatus | - | - | - | Isolate AF65 | 0.0018 µg/mL
Cc1nc(OCc2nc(-c3ccccc3)n[nH]2)c2ccccc2n1 | MIC100 | Aspergillus flavus | - | - | - | MTCC 277 | 25 µg/mL